In US20240122867A1, “CORONAL PROTEIN-COATED NANOPARTICLES AND USES THEREOF” (UNIVERSITY OF CENTRAL FLORIDA RESEARCH FOUNDATION, INC., priority 2021, published 2024):

Tested on: coronal proteins on NPs
Design: species or system mouse
Details: for V5 Sera_Nanoparticles Quantitative Value (Normalized Total Spectra): HBPE-NPs incubated 1 h with IAV day 5 (V5) mouse sera, 20:1 NP:sera, centrifuged and washed; for V5 Sera Alone (Control) Quantitative Value (Normalized Total Spectra): IAV day 5 (V5) mouse sera alone, no NPs (sera-only control)

B1: Complement component C8 gamma chain (protein, UniProt Q8VCG4 21-202, looked up)
Complement component C8 gamma …: QRTRKPIGSTSPISTIQAQVNFSAQKFAGTWLLVAVGSSCRFLQEQGHRAEATTLHAAPQGAAMAVSTFRKLDGICWQVRQLFENTGVPGRFLFQVSRARGPVHMVVAETDYQSFAILYLEQGRKLSVKLYVRSLPVNDSVLDVFERRVREANLTEDQILFFPKYGFCETADQLHILNEVPR
V5 Sera_Nanoparticles Quantitative Value (Normalized Total Spectra): 1.0879
V5 Sera Alone (Control) Quantitative Value (Normalized Total Spectra): 2.7757

B2: Keratin, type I cytoskeletal 42 (protein, UniProt Q6IFX2 1-452, looked up)
Keratin, type I cytoskeletal …: MASTTSVRQFSTSGSVKGLCAPGMGFSRMSSVRVGGACRAPSLLGGGSCGNMSVTSSRFSAGLGGGYGGGYTCSLGGGFGSSFGVSDALLGGSEKETMQNLNDRLATYLDRVRALEEANADLEVKIREWYKKQGPGPARDYSPYFKTIEDLRNKILAATIDNASIVLQIDNARLAADDFRTKYETELNLRMSVEADINGLRRVLDELTLARADLEMQIESLKEELAYLRKNHEEEMNALRGQVGGDVNVEMDAAPGVDLSRILNEMRDQYEKMAEKNRKDAEEWFFTKTEELNREVATNTEALQSSRTEITELRRSVQNLEIELQSQLSMKASLENSLAETEARYGAQLAQLQGLISSVEQQLCELRCDMERQNHEYQVLLDVKTRLEQEIATYRRLLEGEDAHLATQYSSSLASQPSREGMVTSRQVRTIVEEVQDGKVVSSREQVHRSTH
V5 Sera_Nanoparticles Quantitative Value (Normalized Total Spectra): 1.0879
V5 Sera Alone (Control) Quantitative Value (Normalized Total Spectra): 0.9252

B3: Lysosomal alpha-mannosidase (protein, UniProt O09159 50-1013, looked up)
Lysosomal alpha-mannosidase: AGYKTCPPTKPGMLNVHLLPHTHDDVGWLKTVDQYYYGILSDVQHASVQYILDSVVSSLLEKPTRRFIYVEMAFFSRWWKQQTSATQDAVRNLVRQGRLEFVNGGWVMNDEAATHYGAIVDQMTLGLRFLQDTFGSDGLPRVAWHIDPFGHSREQASLFAQMGFDGFFLGRIDYQDKLNRKKKLRMEELWRASDSLEPPAADLFTGVLPNNYNPPKYLCWDVLCTDPPVVDNPRSPEFNAKTLVNYFLKLASSQKGFYRTNHTVMTMGSDFHYENANMWFKNMDKLIRLVNAQQVNGSLVHVLYSTPTCYLWELNKANLTWTVKEDDFFPYADGPHMFWTGYFSSRPALKRYERLSYNFLQVCNQLEALVGPEANVGPYGSGDSAPLQEAMAVLQHHDAVSGTARQNVVNDYARQLAAGWGPCEVLVSNALARLSHYKQNFSFCRELNISICPVSQTSERFQVTLYNPLGRKVDQMVRLPVYEGNFIVKDPHDKNISSNVVMVPSYYSETYQWELLFPASVPALGFSTYSVAKMSDLNHQAHNLLSRPRKHKSHHVLVIENKYMRATFDSGTGLLMKIENLEQNLSLPVSQGFFWYNASVGDEESSQASGAYIFRPNVGKPIPVSRWAQISLVKTALVQEVHQNFSAWCSQVIRLYKGQRHLELEWTVGPIPVRDDWGKEVISRFDTPMKTKGQFFTDSNGREILKRRDDYRPTWTLNQTEPVAGNYYPVNTRIYITDGQMQLTVLTDRSQGGSSLQDGSLELMVHRRLLVDDDRGVSEPLLETDTGDKVRGRHLVLLSSVSDAAARHRLLAEQEVLAPQVVLSLGGSSPYHSRATPKTQFSGLRQELPPQVHLLTLARWGPKMLLLRLEHQFALKEDSDRNLSSPVTLNVQNLFQTFTINYLQETTLAANQPLSRASRLKWMTNTGPTSYPEPSKLDPTSVTLKPMEIRTFLASVQWQEHRPA
V5 Sera_Nanoparticles Quantitative Value (Normalized Total Spectra): 1.0879
V5 Sera Alone (Control) Quantitative Value (Normalized Total Spectra): 0

B4: Ras-related protein Rap-1b (protein, UniProt Q99JI6 1-181, looked up)
Ras-related protein Rap-1b: MREYKLVVLGSGGVGKSALTVQFVQGIFVEKYDPTIEDSYRKQVEVDAQQCMLEILDTAGTEQFTAMRDLYMKNGQGFALVYSITAQSTFNDLQDLREQILRVKDTDDVPMILVGNKCDLEDERVVGKEQGQNLARQWNNCAFLESSAKSKINVNEIFYDLVRQINRKTPVPGKARKKSSC
V5 Sera_Nanoparticles Quantitative Value (Normalized Total Spectra): 1.0879
V5 Sera Alone (Control) Quantitative Value (Normalized Total Spectra): 1.8505

B5: Alpha-actinin-1 (protein, UniProt Q7TPR4 1-892, looked up)
Alpha-actinin-1: MDHYDSQQTNDYMQPEEDWDRDLLLDPAWEKQQRKTFTAWCNSHLRKAGTQIENIEEDFRDGLKLMLLLEVISGERLAKPERGKMRVHKISNVNKALDFIASKGVKLVSIGAEEIVDGNVKMTLGMIWTIILRFAIQDISVEETSAKEGLLLWCQRKTAPYKNVNIQNFHISWKDGLGFCALIHRHRPELIDYGKLRKDDPLTNLNTAFDVAERFLDIPKMLDAEDIVGTARPDEKAIMTYVSSFYHAFSGAQKAETAANRICKVLAVNQENEQLMEDYEKLASDLLEWIRRTIPWLENRVPENTMHAMQQKLEDFRDYRRLHKPPKVQEKCQLEINFNTLQTKLRLSNRPAFMPSEGRMVSDINNAWGCLEQAEKGYEEWLLNEIRRLERLDHLAEKFRQKASIHEAWTDGKEAMLRQKDYETATLSEIKALLKKHEAFESDLAAHQDRVEQIAAIAQELNELDYYDSPSVNARCQKICDQWDNLGALTQKRREALERTEKLLETIDQLYLEYAKRAAPFNNWMEGAMEDLQDTFIVHTIEEIQGLTTAHEQFKATLPDADKERLAILGIHNEVSKIVQTYHVNMAGTNPYTTITPQEINGKWDHVRQLVPRRDQALTEEHARQQHNERLRKQFGAQANVIGPWIQTKMEEIGRISIEMHGTLEDQLSHLRQYEKSIVNYKPKIDQLECDHQLIQEALIFDNKHTNYNMEHIRVGWEQLLTTIARTINEVENQILTRDAKGISQEQMNEFRASFNHFDRDHSGTLGPEEFKACLISLGYDIGNDPQGEAEFARIMSIVDPNRLGVVTFQAFIDFMSRETADTDTADQVMASFKILAGDKNYITEDELRRELPPDQAEYCIARMAPYAGPDSVPGALDYMSFSTALYGESDL
V5 Sera_Nanoparticles Quantitative Value (Normalized Total Spectra): 1.0879
V5 Sera Alone (Control) Quantitative Value (Normalized Total Spectra): 0.9252

B6: Serglycin (protein, UniProt P13609 75-152, looked up)
Serglycin: EGPSKDFISNYDDYGSGSGSGSGSGSGSGSGSGSGFLGDMEWEYQPTDESNIVYFNYKPFDRILTEQNQDQPEDDFII
V5 Sera_Nanoparticles Quantitative Value (Normalized Total Spectra): 1.0879
V5 Sera Alone (Control) Quantitative Value (Normalized Total Spectra): 1.8505

B7: Amyloid-beta A4 precursor protein-binding family B member 2 (protein, UniProt Q9DBR4 1-760, looked up)
Amyloid beta precursor …: MSEVLPADSGVGTLAVFMASSGSTDIANRNSPATPPNTLNLRSSHNELLNAEIKHSDAKNSTPPKCRKKYALTNIQAAMGLSDPAVQPLLGNGSANIKLVKNGENQLRKAAEQGQQDPNKNLSPAAVINLTSEKLEVKDPHPQESSGCEILPSQPRRTKSFLNYYADLETSARELGQNLGPCQGVGEEKAQPGPGQAPVVIGNGDLLPQKPNKPQSSPEDGQVATVSSSPETKKDHPKTGAKTDCALHRIQNLAPSDEESSWTTLSQDSASPSSPDETDIWSDHSFQTDPDLPPGWKRVNDIAGTYYWHIPTGTTQWERPVSIPADLHGSRKGSLSSVTPSPTPENEKQPWSDFAVLNGGKINSDIWKDLHAATVNPDPSLKEFEGATLRYASLKLRNAPHGDDDDSCSINSDPEAKCFAVRSLGWVEMAEEDLAPGKSSVAVNNCIRQLSYCKNDIRDTVGIWGEGKDMYLSLENDMLSLVDPMDRSVLHSQPIVNIRVWGVGRDNGRERDFAYVARDKDTRILKCHVFRCDTPAKAIATSLHEICSKIMAERKNAKALACSSLQERTNMSLDVPLQVDFPTPKTELVQKFRVQYLGMLPVDRPVGMDTLNSAIENLMTSSSKEDWPSVNMNVADATVTVISEKNEEEVLVECRVRFLSFMGVGKDVHTFAFIMDTGNQRFECHVFWCEPNAANVSEAVQAACMLRYQKCLVARPPSQKVRPPPPPADSVTRRVTTNVKRGVLSLIDTLKQKRPVTETP
V5 Sera_Nanoparticles Quantitative Value (Normalized Total Spectra): 1.0879
V5 Sera Alone (Control) Quantitative Value (Normalized Total Spectra): 0

B8: Insulin-like growth factor-binding protein complex acid labile subunit (protein, UniProt P70389 24-603, looked up)
Insulin-like growth …: YLQGTDPGASADAEGPQCPVTCTCSYDDYTDELSVFCSSRNLTQLPDGIPVSTRALWLDGNNLSSIPSAAFQNLSSLDFLNLQGSWLRSLEPQALLGLQNLYHLHLERNLLRSLAAGLFRHTPSLASLSLGNNLLGRLEEGLFRGLSHLWDLNLGWNSLVVLPDTVFQGLGNLHELVLAGNKLTYLQPALLCGLGELRELDLSRNALRSVKANVFIHLPRLQKLYLDRNLITAVAPRAFLGMKALRWLDLSHNRVAGLLEDTFPGLLGLHVLRLAHNAITSLRPRTFKDLHFLEELQLGHNRIRQLGEKTFEGLGQLEVLTLNDNQIHEVKVGAFFGLFNVAVMNLSGNCLRSLPEHVFQGLGRLHSLHLEHSCLGRIRLHTFAGLSGLRRLFLRDNSISSIEEQSLAGLSELLELDLTANQLTHLPRQLFQGLGQLEYLLLSNNQLTMLSEDVLGPLQRAFWLDLSHNRLETPAEGLFSSLGRLRYLNLRNNSLQTFVPQPGLERLWLDANPWDCSCPLKALRDFALQNPGVVPRFVQTVCEGDDCQPVYTYNNITCAGPANVSGLDLRDISETLFVHC
V5 Sera_Nanoparticles Quantitative Value (Normalized Total Spectra): 1.0879
V5 Sera Alone (Control) Quantitative Value (Normalized Total Spectra): 1.8505

B9: Fermitin family homolog 3 (protein, UniProt Q8K1B8 1-665, looked up)
Fermitin family homolog 3: MAGMKTASGDYIDSSWELRVFVGEEDPEAQSVTLRVTGESHIGGVLLKIVEEINRKQDWSDHAIWWEQKRQWLLQTHWTLDKYGILADARLFFGPQHRPVILRLPNRRVLRLRASFSKPLFQTVAAICRLLSIRHPEELSLLRAPEKKEKKKKEKEPEEEVHDLTKVVLAGGVAPTLFRGMPAHFSDSAQTEACYHMLSRPQPAPDPLLLQRLPRPSSLPDKTQLHSRWLDSSRCLMQQGIKAGDVLWLRFKYYSFFDLDPKTDPVRLTQLYEQARWDLLTEEIDCTEEEMMVFAALQYHINKLTLSGDVGELASGDLGLDDLDAALNNLEVKLKGSAPSDMLDSLTTIPELKDHLRIFRPRKLTLKGYRQYWVVFKDTTLSYYKSQDEAPGDPTQQLNLKGCEVVPDVNVSGQKFCIKLLVPSPEGMSEIYLRCQDEQQYAQWMAACRLASKGRTMADSSYASEVQAILAFLSLQRAGGSNGGSGNKPQGPEAPAEGLNPYGLVAPRFQRKFKAKQLTPRILEAHQNVAQLSLTEAQLRFIQAWQSLPDFGISYVMVRFKGSRKDEILGIANNRLIRIDLAVGDVVKTWRFSNMRQWNVNWDIRQVAIEFDEHINVAFSCVSASCRIVHEYIGGYIFLSTRERARGEELDEDLFLQLTGGHEAF
V5 Sera_Nanoparticles Quantitative Value (Normalized Total Spectra): 1.0879
V5 Sera Alone (Control) Quantitative Value (Normalized Total Spectra): 1.8505

B10: L-selectin (protein, UniProt P18337 39-372, looked up)
L-selectin: WTYHYSEKPMNWENARKFCKQNYTDLVAIQNKREIEYLENTLPKSPYYYWIGIRKIGKMWTWVGTNKTLTKEAENWGAGEPNNKKSKEDCVEIYIKRERDSGKWNDDACHKRKAALCYTASCQPGSCNGRGECVETINNHTCICDAGYYGPQCQYVVQCEPLEAPELGTMDCIHPLGNFSFQSKCAFNCSEGRELLGTAETQCGASGNWSSPEPICQVVQCEPLEAPELGTMDCIHPLGNFSFQSKCAFNCSEGRELLGTAETQCGASGNWSSPEPICQETNRSFSKIKEGDYNPLFIPVAVMVTAFSGLAFLIWLARRLKKGKKSQERMDDPY
V5 Sera_Nanoparticles Quantitative Value (Normalized Total Spectra): 1.0879
V5 Sera Alone (Control) Quantitative Value (Normalized Total Spectra): 0
